This assay addresses NA of A/Alabama/03/2020 A(H1N1)pdm09 (H275Y) (Influenza A virus, UniProt A0A0X9QTS2, H275Y). In kind it is biochemical.

For the substance oseltamivir carboxylate, the IC50 fold-change is reported as 229.67 ± 25.29 (1351) fold.

These data come from article PMC10508830 (Antiviral research, 2023).
